A mixed list of measured activities; the numbers were collected in NIAID ChemDB.

Shared fields: toxicity to cultured cells; cells: H9; endpoint: CC50

Neighbouring rows are from separate reports. CCn: concentration that lowers growth or viability of the cells by n%. Blank or dashed fields: not listed here.

SMILES,read by,value
CC(C)Nc1cccnc1N1CCN(C(=O)c2cc3cc(F)ccc3[nH]2)CC1,-,>10 µM
CCCCCCCCCCOC[C@H](CO[C@@]1(C(=O)O)C[C@H](OS(=O)(=O)O)[C@@H](NC(C)=O)[C@H]([C@H](OS(=O)(=O)O)[C@@H](COS(=O)(=O)O)OS(=O)(=O)O)O1)OCCCCCCCCCC,-,>200 µM
COc1c(Br)c(C(=O)O)c(-c2c3c(c(OC)c(Br)c2C(=O)ONCCN2CCCC2)OCO3)c2c1OCO2,-,>100 µg/mL
CCOC(=O)c1cc(C(=O)c2ccc3ccccc3c2)n2ccc(C(=O)N[C@@H](CCSC)CC(=O)O)cc12,MTT,43.3 µM
c1cc(-c2nc3ccccc3[nH]2)nc(-c2nc3ccccc3[nH]2)c1,cell count,21 µg/mL
CN(C)c1ncnc2c1ncn2[C@@H]1O[C@H](CO)[C@@H](N)[C@H]1O,-,>10 µg/mL
CCCCn1ccc(=O)c2cnc(-c3ccncc3)nc21,-,35 µM
CC1(C)Oc2ccc3cc(CN)c(=O)oc3c2[C@@H](OC(=O)C23CCC(C)(C(=O)O2)C3(C)C)[C@H]1OC(=O)C12CCC(C)(C(=O)O1)C2(C)C,XTT,>15.4 µM
CCOC(=O)c1cc(C(=O)c2cccc(Br)c2)n2ccc(C(=O)NCc3ccccn3)cc12,MTT,54 µM
CCN(CC)Cc1cc2ccc3c(c2oc1=O)[C@@H](OC(=O)C12CCC(C)(C(=O)O1)C2(C)C)[C@@H](OC(=O)C12CCC(C)(C(=O)O1)C2(C)C)C(C)(C)O3,XTT,>14.1 µM
Cc1cn([C@H]2C[C@H](N=[N+]=[N-])[C@@H](CO)O2)c(=O)[nH]c1=O,cell count,500 µg/mL
Cc1cc(=O)oc2c3c(c(CBr)cc12)OC(C)(C)[C@H](OC(=O)C12CCC(C)(C(=O)O1)C2(C)C)[C@@H]3OC(=O)C12CCC(C)(C(=O)O1)C2(C)C,XTT,>13.7 µM
Cn1ccc(=O)c2cnc(-c3ccncc3)nc21,-,>100 µM
CC12CCC[C@]3(C(=O)OC1)[C@@H]2CC[C@@]12C[C@@H](CC[C@H]13)[C@@](C)(O)C2,-,3.1 µM
C=C(C)[C@@H]1CC[C@]2(C(=O)O)CC[C@]3(C)[C@H](CC[C@@H]4[C@@]5(C)CC[C@H](OC(=O)COCC(=O)O)C(C)(C)[C@@H]5CC[C@]43C)[C@@H]12,-,11.7 µM
O=C(OCCOCCOCCNC(=O)c1cc(C(=O)c2ccc3ccccc3c2)n2ccc(C(=O)c3ccccc3)cc12)c1ccccc1,MTT,125.4 µM
CCC(O)C(N)C(=O)O,-,>750 µM
Cc1c(COC(N)=O)c(=O)oc2c3c(ccc12)OC(C)(C)[C@H](OC(=O)C12CCC(C)(C(=O)O1)C2(C)C)[C@@H]3OC(=O)C12CCC(C)(C(=O)O1)C2(C)C,XTT,33 µM
CC(C)[C@@H]1CC[C@]2(COC(=O)CCC(=O)O)CC[C@]3(C)[C@H](CC[C@@H]4[C@@]5(C)CC[C@H](OC(=O)CCC(=O)O)C(C)(C)[C@@H]5CC[C@]43C)[C@@H]12,-,28.8 µM
Cc1cn([C@H]2C[C@H](N=[N+]=[N-])[C@@H](CO)O2)c(=O)[nH]c1=O,-,1873 µM
Nc1ccn(C2C[C@H](CO)[C@@H](CO)C2)c(=O)n1,-,>100 µg/mL
O=C1OCC2OC(O)C(O)C(O)C2OC(=O)c2cc(O)c(O)c(O)c2-c2c(O)c(O)c3oc(=O)c4c(c(O)c(O)c5oc(=O)c2c3c54)-c2c1cc(O)c(O)c2O,-,>100 µg/mL
CC1(C)CC[C@]2(C(=O)O)CC[C@]3(C)[C@H](CC[C@@H]4[C@@]5(C)CC[C@H](O)C(C)(C)[C@@H]5CC[C@]43C)[C@@H]2C1,cell count,17.4 µg/mL
C=C(C)[C@@H]1CC[C@]2(COC(=O)CCC(=O)O)CC[C@]3(C)[C@H](CC[C@@H]4[C@@]5(C)CC[C@H](OC(=O)CCC(=O)O)C(C)(C)[C@@H]5CC[C@]43C)[C@@H]12,-,35.3 µM
CC(C)(CC(=O)O)CC(=O)O[C@H]1CC[C@]2(C)[C@H]3CC[C@@H]4[C@@H]5CC(C)(C)CC[C@]5(C(=O)O)CC[C@@]4(C)[C@]3(C)CC[C@H]2C1(C)C,cell count,8.3 µg/mL
CCCCCCCCCCOC[C@H](CO[C@]1(C(=O)O)C[C@H](OS(=O)(=O)O)[C@@H](NC(C)=O)[C@H]([C@H](OS(=O)(=O)O)[C@@H](COS(=O)(=O)O)OS(=O)(=O)O)O1)OCCCCCCCCCC,-,>200 µM
CC(C)CCC[C@@H](C)[C@H]1CCC2C3CCC4C[C@@H](OCc5cn([C@@H]6O[C@H](COS(=O)(=O)[O-])[C@@H](O[C@H]7O[C@H](COS(=O)(=O)[O-])[C@@H](O[C@H]8O[C@H](COS(=O)(=O)[O-])[C@@H](OS(=O)(=O)[O-])[C@H](OS(=O)(=O)[O-])[C@H]8OS(=O)(=O)[O-])[C@H](OS(=O)(=O)[O-])[C@H]7OS(=O)(=O)[O-])[C@H](OS(=O)(=O)[O-])[C@H]6OS(=O)(=O)[O-])nn5)CC[C@]4(C)C3CC[C@@]21C,-,190 µg/mL
COc1cc2c(c(O)c1OC)-c1c(cc(OC)c(OC)c1O)C[C@H](C)[C@H](C)C2,MTT,40.46 µM
COc1ccc2[nH]c(C(=O)N3CCN(c4ncccc4NC(C)C)CC3)cc2c1,-,63 µM
CCOC(=O)c1cc(C(=O)c2ccc(C(F)(F)F)cc2)n2ccc(C(=O)NCc3ccccn3)cc12,MTT,349.9 µM
Cc1cc(=O)oc2c3c(c(CN)cc12)OC(C)(C)[C@H](OC(=O)C12CCC(C)(C(=O)O1)C2(C)C)[C@@H]3OC(=O)C12CCC(C)(C(=O)O1)C2(C)C,XTT,>15 µM
CCOC(=O)c1cc(C(=O)c2cccc(N)c2)n2ccc(C(=O)NCc3ccccn3)cc12,MTT,133.5 µM
C=C(C)[C@@H]1CC[C@]2(COC(=O)CC(C)(C)CC(=O)O)CC[C@]3(C)[C@H](CC[C@@H]4[C@@]5(C)CC[C@@H](OC(=O)CC(C)(C)CC(=O)O)C(C)(C)[C@@H]5CC[C@]43C)[C@@H]12,-,33.6 µM
C=C(C)[C@@H]1CC[C@]2(C(=O)OCC(=O)c3ccccc3)CC[C@]3(C)[C@H](CC[C@@H]4[C@@]5(C)CC[C@H](NC(=O)CC(C)(C)CC(=O)O)C(C)(C)[C@@H]5CC[C@]43C)[C@@H]12,-,23.6 µM
CCc1cn([C@@H]2C[C@H](F)[C@@H](CO)O2)c(=O)[nH]c1=O,-,400 µM
C=C(C)[C@@H]1CC[C@]2(C(=O)O)CC[C@]3(C)[C@H](CC[C@@H]4[C@@]5(C)CC[C@H](OC(=O)COCC(=O)O)C(C)(C)[C@@H]5CC[C@]43C)[C@@H]12,-,11.7 µM
CCCCCCCCCCCCCCOC[C@H](CO[C@@]1(C(=O)O)C[C@H](OS(=O)(=O)O)[C@@H](NC(C)=O)[C@H]([C@H](OS(=O)(=O)O)[C@@H](COS(=O)(=O)O)OS(=O)(=O)O)O1)OCCCCCCCCCCCCCC,-,>200 µM
O=C(O)C1=C[C@@H](OC(=O)c2cc(O)c(O)c(O)c2)[C@@H](OC(=O)c2cc(O)c(O)c(O)c2)[C@H](OC(=O)c2cc(O)c(O)c(O)c2)C1,-,>20 µg/mL
CCOC(=O)c1cc(C(=O)c2ccccc2)n2ccc(C(=O)NCc3ccccn3)cc12,MTT,151 µM
CCCCCn1ccc(=O)c2cnc(-c3ccncc3)nc21,-,25 µM
COc1cc2c(c3oc(=O)c(CBr)c(C)c13)[C@@H](OC(=O)C13CCC(C)(C(=O)O1)C3(C)C)[C@@H](OC(=O)C13CCC(C)(C(=O)O1)C3(C)C)C(C)(C)O2,XTT,>32.93 µM
CC1(C)CC[C@]2(C(=O)O)CC[C@]3(C)C(=CCC4[C@@]5(C)CC[C@H](OC(=O)CC6(CC(=O)O)CCCC6)C(C)(C)C5CC[C@]43C)C2C1,cell count,4.7 µg/mL
CCOC(=O)c1cc(C(=O)c2ccc(F)cc2)n2ccc(C(=O)NCc3ccccn3)cc12,MTT,81.6 µM
COc1c(Br)c(C(=O)O)c(-c2c3c(c(OC)c(Br)c2C(=O)O)OCO3)c2c1OCO2,-,>100 µg/mL
COc1cc(C2(C(F)(F)F)N=N2)ccc1C(=O)NCCOCCOCCNC(=O)c1cc(C(=O)c2ccc3ccccc3c2)n2ccc(C(=O)c3ccccc3)cc12,MTT,174.6 µM
CC(C)(CC(=O)O)CC(=O)NC[C@]12CCC(C)(C)C[C@H]1C1=CC[C@@H]3[C@@]4(C)CC[C@H](OC(=O)CC(C)(C)CC(=O)O)C(C)(C)[C@@H]4CC[C@@]3(C)[C@]1(C)CC2,cell count,21.2 µg/mL
O=C(CCCCC1SC[C@@H]2NC(=O)N[C@H]12)NCCOCCOCCOc1cc(C2(C(F)(F)F)N=N2)ccc1C(=O)NCCOCCOCCNC(=O)c1cc(C(=O)c2ccc3ccccc3c2)n2ccc(C(=O)c3ccccc3)cc12,MTT,160.1 µM
Nc1nc2c(ncn2[C@@H]2C=C[C@H](CO)C2)c(=O)[nH]1,-,>2000 µM
COc1cc2c(c3oc(=O)c(CC#N)c(C)c13)[C@@H](OC(=O)C13CCC(C)(C(=O)O1)C3(C)C)[C@@H](OC(=O)C13CCC(C)(C(=O)O1)C3(C)C)C(C)(C)O2,XTT,>35.46 µM
CCOC(=O)c1cc(C(=O)NCc2ccccn2)n2ccc(C(=O)c3ccco3)cc12,MTT,103.2 µM
CCOC(=O)c1cc(C(=O)c2ccc3ccccc3c2)n2ccc(C(=O)c3ccncc3)cc12,MTT,137.3 µM
C=C(C)[C@@H]1CC[C@]2(COC(=O)CC(C)(C)CC(=O)O)CC[C@]3(C)[C@H](CC[C@@H]4[C@@]5(C)CC=CC(C)(C)[C@@H]5CC[C@]43C)[C@@H]12,-,31.9 µM
Nc1cc(S(=O)(=O)O)cc2cc(S(=O)(=O)O)cc(O)c12,-,>600 µg/mL
O=c1cc[nH]c2nc(-c3ccncc3)ncc12,-,>100 µM